Common to all, as to assay: ITC
In experiment [1] the target is ATG8-1.2 (potato), residues Ser5-Asn114, C-terminal 6xHis (Solanum tuberosum (potato)).
Experiment [2] deals with ATG8-3.1 (potato), residues Ser5-Asn114, C-terminal 6xHis (Solanum tuberosum (potato)).
The target in experiment [3] is ATG8-1.1 (potato), residues Ser5-Asn114, C-terminal 6xHis (Solanum tuberosum (potato)).
The target in experiment [4] is ATG8-3.2 (potato), residues Ser5-Asn114, C-terminal 6xHis (Solanum tuberosum (potato)).
Experiment [5] concerns the target T1, ATG8-4-V32I, C-terminal 6xHis (Solanum tuberosum (potato)).
T1 chain: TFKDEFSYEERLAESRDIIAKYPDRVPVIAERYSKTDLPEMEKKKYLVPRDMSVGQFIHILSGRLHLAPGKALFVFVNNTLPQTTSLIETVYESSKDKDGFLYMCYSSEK

B1: m10 (peptide)
chain: KPLDFDWEIV
As to B1, the Kd came to 253 nM in experiment [1], 116 nM in experiment [2], 297 nM in experiment [3] and 54 nM in experiment [4].

B2: PexRD54 AIM peptide (peptide)
chain: KPLDFDWEIV
In experiment [5], B2 came in with a Kd of 92 nM.

B3: PexRD54 full-length protein (purified) (natural protein)
chain: EGLAPSDQAYRPTMTGLKSRLNDPRPLSTATIATSSERFLRFDTVARDTAGNDEERVGPSWLAKVDGLMHKMVTSSLSAEEAQLKVWIQSQIHPRELFGVLSLGKRAAKLDDNPDFVQWLRLVKDFRANNGNQAFSDLDIYYLLLKTNSPEQLKLLFETLRHTPGMTKIGASMEKSLSGNWIRKALEQDTYPTIVYNTLRLKDAGTKLDDTPMFRQWLEYVEKYWNKNAGAFFGDTQMLTLFQKTMTEEEDIIKLVHMLRNNPGMKSHADKLERYLLLTSESSHKTMADVWLKARETPEEVFRILRLAEKQTAAADDNRMLNLWLRYTQTYRDKIDKNAFSDAEALQFFRKAKPLDFDWEIV
For B3, the Kd in experiment [5] came to 593 nM.

Source of the values: paper PMC6675122 (2019).
